Assay results taken from ChEMBL document CHEMBL4373723 (J Med Chem, 2019).

What was measured:
Frizzled-7 [1] = molecular target: T1, Frizzled-7 (Homo sapiens, UniProt O75084); test: Binding affinity to recombinant human Frizzled-7 (Gln33 to Leu185 residues)/human IgG1 chimeric protein expressed in CHO cells assessed as dissociation rate constant by SPR assay
[2] = Stability in presence of DTT assessed as disulfide reduction at 20 uM measured over 40 mins at 37 degC by LC-MS analysis
Frizzled-7 [3] = molecular target: T1, Frizzled-7; test: Binding affinity to recombinant human Frizzled-7 (Gln33 to Leu185 residues)/human IgG1 chimeric protein expressed in CHO cells by SPR assay
[4] = Stability in presence of 0.1 to 100 mM TCEP assessed as disulfide reduction at higher level of TCEP at 20 uM measured over 40 mins at 37 degC by LC-MS analysis
[5] = Stability in mouse serum at 200 uM at 37 degC measured over 24 hrs by LC-MS analysis
[6] = Stability in cell culture medium containing 10% fetal bovine serum at 200 uM at 37 degC measured after 6 hrs by LC-MS analysis; details: cattle

With CSCC[C@H](NC(=O)[C@@H](NC(=O)[C@H](Cc1cnc[nH]1)NC(=O)[C@H](C[Se][Se]C[C@H](NC(=O)[C@H](Cc1c[nH]c2ccccc12)NC(=O)[C@H](Cc1ccccc1)NC(=O)[C@H](CCC(=O)O)NC(=O)[C@H](CC(C)C)NC(=O)[C@H](CC(=O)O)NC(=O)[C@H](CC(=O)O)NC(=O)[C@H](CO)NC(C)=O)C(=O)N[C@@H](Cc1cnc[nH]1)C(=O)N[C@H](C(=O)N[C@@H](CCSC)C(=O)N[C@@H](Cc1ccc(O)cc1)C(N)=O)C(C)C)NC(=O)[C@H](Cc1c[nH]c2ccccc12)NC(=O)[C@H](Cc1ccccc1)NC(=O)[C@H](CCC(=O)O)NC(=O)[C@H](CC(C)C)NC(=O)[C@H](CC(=O)O)NC(=O)[C@H](CC(=O)O)NC(=O)[C@H](CO)NC(C)=O)C(C)C)C(=O)N[C@@H](Cc1ccc(O)cc1)C(N)=O the Kd (Frizzled-7 [1]) was 1 ×10⁻³ /s, the Drug degradation [2] was 30% and the Kd (Frizzled-7 [3]) was 0.19 nM. For the same compound, the Stability [4] was “Unstable”, the Stability [5] was “Stable” and the Stability [6] was “Stable”.
